What was measured:
[1] = target: FLAG-tagged FMDV 3AB1(R16A/L19S), in E. coli membranes (foot-and-mouth disease virus | foot-and-mouth disease virus strain C-S8c1); assay: pull-down
[2] = target: FLAG-tagged FMDV 3AB1(P6S/R9A), in E. coli membranes (foot-and-mouth disease virus | foot-and-mouth disease virus strain C-S8c1); assay: pull-down
[3] = target: FMDV 3Dpol as coated on the ELISA plate (foot-and-mouth disease virus); assay: ELISA

FMDV 3Dpol with 6xHis tag in the C-terminus (3DpolHis) (enzyme)
loss of the ability to bind 3Dpol [1]: > 95%
binding level compared to the wild-type [2]: 30%

GST-3B1(R16A/L19S) (peptide)
binding in comparison to WT 3B1 [3]: 30%

Reference: paper PMC10174528, “Dual role of the foot-and-mouth disease virus 3B1 protein in the replication complex: As protein primer and as an essential component to recruit 3D^pol to membranes” (2023)
